Experimental data taken from PubChem BioAssay AID624483 (NMMLSC, 2012).
Only a part is listed here, and it is no random draw. Active and inactive are the calls of the source. No stated cut-off is given here; in the data, active means fluorescence intensity above about 16000; inconclusive means no clear call, values can overlap the other calls; inactive means below that.

Experiment: compound fluorescence in toxin protease inhibitor counterscreen, primary screen, artefact control for toxin protease inhibitor project, biochemical, multiplex microsphere, HTS (AID 624483); further: test concentration not given here
Conditions: compound autofluorescence counterscreen, microsphere flow cytometry; stronger effect = higher value

| Structure (SMILES) | fluorescence intensity |
| --- | --- |
| CC(C)(C)n1nnnc1C(c1cccc2ccccc12)N1CCC(n2c(=O)[nH]c3ccccc32)CC1 (stereo not drawn) | inactive: 5950 |
| c1ccc(CN2CCC(Nc3ccccc3)CC2)cc1 | inactive: 5240 |
| Cc1cc(N(CCCl)CCCl)ccc1C=O | inactive: 3290 |
| CCCN1CCC(Nc2cc(OC)cc(OC)c2)CC1 | inactive: 2950 |
| O=c1[nH]c2ccccc2n1C1CCN(C(c2ccccc2)c2nnnn2C2CCCC2)CC1 (stereo not drawn) | inactive: 4310 |
| CN(C)C1(CNC(=O)c2cccc(C#N)c2)CCCCC1 | inactive: 2980 |
| COc1ccc(C(=O)NCC2(N3CCOCC3)CCCCC2)cc1OC | inactive: 3330 |
| O=c1[nH]c2ccccc2n1C1CCN(C(c2ccnc3ccccc23)c2nnnn2C2CCCC2)CC1 (stereo not drawn) | inactive: 5740 |
| O=c1[nH]c2ccccc2n1C1CCN(C(c2cccs2)c2nnnn2C2CCCCC2)CC1 (stereo not drawn) | inactive: 5820 |
| O=C(NCC1(N2CCOCC2)CCCCC1)c1cc(Br)ccc1Cl | inactive: 6830 |
| CCCCn1nnnc1C(c1ccccc1)N1CCC(n2c(=O)[nH]c3ccccc32)CC1 (stereo not drawn) | inactive: 5430 |
| COc1cc(C(=O)NCC2(N3CCOCC3)CCCCC2)cc(OC)c1C | inactive: 3830 |
| CCCCn1nnnc1C(c1cccc(OC)c1OC)N1CCC(n2c(=O)[nH]c3ccccc32)CC1 (stereo not drawn) | inactive: 5500 |
| O=C(OC1CN2CCC1CC2)C1c2ccccc2C=Cc2ccccc21 (stereo not drawn) | inactive: 2330 |
| O=c1[nH]c2ccccc2n1C1CCN(C(c2cccs2)c2nnnn2C2CCCC2)CC1 (stereo not drawn) | inactive: 5480 |
| N/C(=N\O)c1c(N)no[n+]1[O-] | inactive: 2560 |
| COc1cccc(C(c2nnnn2C(C)(C)C)N2CCC(n3c(=O)[nH]c4ccccc43)CC2)c1OC (stereo not drawn) | inactive: 4340 |
| O=c1[nH]c2ccccc2n1C1CCN(C(c2cc3ccccc3o2)c2nnnn2C2CCCC2)CC1 (stereo not drawn) | inactive: 5720 |
| CCCOc1ccc(C(=O)NCC2(N(C)C)CCCCC2)cc1 | inactive: 3800 |
| CC(C)(C)OC(=O)N1CCC(Nc2ccccc2)CC1 | inactive: 3150 |
| NN(c1ccccc1)C1CCN(CCc2ccccc2)CC1 | inactive: 5250 |
| O=C(O)C1(Nc2ccccc2)CCN(Cc2ccccc2)CC1 | inactive: 4270 |

| Structure (SMILES) | fluorescence intensity |
| --- | --- |
| CCOc1ncccc1C(=O)NCC1(N2CCOCC2)CCCCC1 | active: 21100 |
| CN1CCC(Nc2ccc(F)c(Cl)c2)CC1 | inactive: 3690 |
| CN1CCC(Nc2ccc(Cl)cc2)CC1 | inactive: 4740 |
| CCC(CO)(C(=O)OC1CN2CCC1CC2)c1ccccc1 (stereo not drawn) | inactive: 2480 |
| COc1cccc(C(=O)N(c2cc(C)cc(C)c2)C2CCN(C(=O)OC(C)(C)C)CC2)c1 | inactive: 3610 |
| COc1cc(OC)cc(C(=O)NCC2(N3CCOCC3)CCCCC2)c1 | inactive: 4410 |
| COc1cccc(C(c2nnnn2C2CCCC2)N2CCC(n3c(=O)[nH]c4ccccc43)CC2)c1OC (stereo not drawn) | inactive: 6330 |
| Cc1ccc(NC2(C#N)CCN(Cc3ccccc3)CC2)cc1 | inactive: 4370 |
| Fc1ccccc1NC1CCN(Cc2ccccc2)CC1 | inactive: 9740 |
| COc1cc(OC)cc(C(=O)NCC2(N3CCCCC3)CCCCC2)c1 | inactive: 4060 |
| O=c1[nH]c2ccccc2n1C1CCN(C(c2ccnc3ccccc23)c2nnnn2C2CCCCC2)CC1 (stereo not drawn) | inactive: 5730 |
| COc1cccc(C(c2nnnn2C2CCCCC2)N2CCC(n3c(=O)[nH]c4ccccc43)CC2)c1OC (stereo not drawn) | inactive: 5350 |
| CC(=O)N(c1ccccc1)C1CCNCC1 | inactive: 2820 |
| CCC(c1nnnn1C1CCCCC1)N1CCC(n2c(=O)[nH]c3ccccc32)CC1 (stereo not drawn) | inactive: 3890 |
| O=C(NCC1(N2CCCCC2)CCCCC1)c1ccco1 | inactive: 4550 |
| CN(C)c1ccc(C(=O)NCC2(N3CCCCC3)CCCCC2)cc1 | inactive: 3620 |
| Cn1c(=O)[nH]cc(N(CCCl)CCCl)c1=O | inactive: 3380 |
| Cc1ccccc1NC1(C#N)CCN(Cc2ccccc2)CC1 | inactive: 3960 |
| CCN1CCC(Nc2cccc(F)c2)CC1 | inactive: 2450 |
| COc1ccc(C(c2nnnn2C2CCCCC2)N2CCC(n3c(=O)[nH]c4ccccc43)CC2)cc1 (stereo not drawn) | inactive: 5600 |
| CC(C)(C)n1nnnc1C(c1ccnc2ccccc12)N1CCC(n2c(=O)[nH]c3ccccc32)CC1 (stereo not drawn) | inactive: 4250 |
